A mixed list of measured activities; the numbers were collected in NIAID ChemDB.

All rows: cytotoxicity tests; measure: CC50

CCn is the concentration with n% toxicity to the cells. Two numbers with a dash give a range or band. Lines come from different laboratories, so protocols vary. An empty or dashed field is not shown.

structure | cell line | read by | value
Cn1c(=O)cc(Sc2ccc(Cl)cc2)c2cc(F)ccc21 | Huh-Luc-Neo |  | >100 µM
Cc1ccc(Cl)cc1-c1nc(=S)[nH][nH]1 | Panc-1 | MTT | >100 µg/mL
CCCCS(=O)(=O)Nc1ccc2[nH]c(C#N)c(C)c2c1 | VERO | resazurin | 170 µM
Cn1c(=O)cc(Sc2ccc(Br)cc2)c2cc(Cl)ccc21 | Huh-Luc-Neo |  | >100 µM
Fc1ccc(-c2n[nH]c(=S)s2)cc1 | THP-1 | MTT | >100 µg/mL
CO[C@H]1O[C@H](Cn2c(C)cc(=O)[nH]c2=O)[C@H](O)[C@H]1OCc1ccccc1F | MOLT 4/C8 |  | 155 µM
Nc1ncnc2c1ncn2[C@@H]1O[C@H](CO)[C@@H](O)[C@@H]1O | RK II |  | 320 µg/mL
CC[C@@H](C)[C@@H]1NC(=O)[C@@H](CC(C)C)NC(=O)[C@H](CC(C)C)NC(=O)[C@H](Cc2c[nH]c3ccccc23)NC(=O)[C@@H](CCCN)NC(=O)[C@H](CO)NC1=O | Hep2G | luminescence | >100 µM
CCC(C)n1ncn(-c2ccc(N3CCN(c4ccc(OC[C@H]5CO[C@](Cn6cncn6)(c6ccc(Cl)cc6Cl)O5)cc4)CC3)cc2)c1=O | 293T | MTT | >400 µM
C#CCSc1n[nH]c(-c2cccc(C(F)(F)F)c2)n1 | Panc-1 | MTT | >100 µg/mL
CCCCS(=O)(=O)Nc1ccc2[nH]c(C(=O)N3CCCC3)c(C)c2c1 | VERO | resazurin | >140 µM
CCC(C)C1NC(=O)[C@H](CC(C)C)NC(=O)[C@H](Cc2c[nH]c3ccccc23)NC(=O)[C@@H](CCCN)NC(=O)[C@H](CC(N)=O)NC(=O)[C@H](C(C)C)NC1=O | Hep2G | luminescence | >100 µM
Fc1ccc(-c2nc(=S)[nH][nH]2)cc1 | Panc-1 | MTT | >100 µg/mL
Brc1ccccc1-c1cc2c(-c3ccnc(NC4CCCC4)n3)ccc(NC3CCCC3)n2n1 | VERO 76 |  | >40 µM
CN1CCN(CCC(=O)NC2CC3(N4CCCCC4)CC(c4ccccc4)C2C(c2ccccc2)C3)CC1 | Rat skeletal myoblasts |  | 61.06 µM
Cc1cc(C2CC2)n2nc(S(=O)(=O)Nc3c(C)csc3S(C)=O)nc2n1 | HEPG2 (HB-8065) | WST | >128 µg/mL
FC(F)(F)c1ccc(Cl)c(-c2nc(=S)[nH][nH]2)c1 | Panc-1 | MTT | >100 µg/mL
Cc1ccc(C(=O)Nc2ccc(S(=O)(=O)O)c3cc(S(=O)(=O)O)cc(S(=O)(=O)O)c23)cc1NC(=O)c1cccc(NC(=O)Nc2cccc(C(=O)Nc3cc(C(=O)Nc4ccc(S(=O)(=O)O)c5cc(S(=O)(=O)O)cc(S(=O)(=O)O)c45)ccc3C)c2)c1 | HuT-78 |  | 55 µM
COc1ccc(CNC(=O)NCCc2ccc3c(n2)NCCC3)c(OC)c1 | PBMC |  | 50 µM
Nc1nc2c(ncn2COCCO)c(=O)[nH]1 | HEL 299 |  | >200 µM
CCCCS(=O)(=O)Nc1ccc2[nH]c(C(=O)N[C@@H](C)c3ccccc3)c(C)c2c1 | VERO | resazurin | 60.5 µM
COc1ccc(OC)c(/C(C)=N/NC(=O)c2ccncc2)c1 | HEL cells | MTT | 100 µg/mL
CN1CCN(CCCN2CC3(N4CCN(C)CC4)CC(c4ccccc4)C2C(c2ccccc2)C3)CC1 | Rat skeletal myoblasts |  | 47.75 µM
Nc1nc2c(ncn2COC(CO)CO)c(=O)[nH]1 | COS 1 |  | 69.9 µg/mL
CC(C)Nc1nc2cc(Cl)c(Cl)cc2n1[C@H]1O[C@@H](CO)[C@H](O)[C@@H]1O | IM9 |  | 35–72 µM
CC(C)C[C@@H]1NC(=O)[C@H](Cc2c[nH]c3ccccc23)NC(=O)[C@@H](CCCN)NC(=O)C(CC(N)=O)N(C)C(=O)[C@H](C(C)C)NC(=O)[C@@H](CC(C)C)N(C)C1=O | Hep2G | luminescence | >100 µM
O=C(NCCc1ccc2c(n1)NCCC2)Nc1cccc(-c2cccc(Cl)c2)n1 | PBMC |  | 50 µM
C[C@H](OCc1ccccc1)[C@@H](NC(=O)OC(C)(C)C)C(=O)Nc1ccc(Sc2cc(=O)n(C)c3ccccc23)cc1 | Huh-Luc-Neo |  | >100 µM
CC(C)CC1C(=O)N[C@H](CC(C)C)C(=O)N(C)C(C(C)C)C(=O)N[C@@H](CC(N)=O)C(=O)N[C@H](CCCN)C(=O)N[C@@H](Cc2c[nH]c3ccccc23)C(=O)N1C | Hep2G | luminescence | >100 µM
CCCCCS(=O)(=O)Nc1ccc2[nH]c(C(N)=O)c(C)c2c1 | VERO | resazurin | 39 µM
C#CCS(=O)(=O)c1nc(-c2ccc([N+](=O)[O-])c(C(F)(F)F)c2)n[nH]1 | Panc-1 | MTT | >100 µg/mL
O=c1c2ncn([C@H]3C=C[C@@H](CO)C3)c2nc2[nH]c(-c3ccsc3)cn12 | PBM |  | >100 µM
Cc1cc(Cl)ccc1-c1nc(=S)[nH][nH]1 | Panc-1 | MTT | >100 µg/mL
Cc1cc(C)n2nc(S(=O)(=O)Nc3c(Cl)ccc(C)c3Cl)nc2n1 | HEPG2 (HB-8065) | WST | >128 µg/mL
CN1CCN(CCCN2CC3(N4CCCCC4)CC(c4ccccc4)C2C(c2ccccc2)C3)CC1 | Rat skeletal myoblasts |  | 62.45 µM
CCC(C)C1NC(=O)[C@H](Cc2c[nH]c3ccccc23)NC(=O)[C@@H](CCCN)NC(=O)[C@H](CC(N)=O)NC(=O)[C@H](C(C)C)NC(=O)[C@@H](CC(C)C)NC1=O | Hep2G | luminescence | >100 µM
CCCn1c(-c2ccc(-n3cncn3)cc2)nc2c(F)cc(F)cc21 | Vero-C-1008 | neutral red / absorbance | >50 µg/mL
Cc1ccc(Sc2cc(=O)n(C)c3ccc(F)cc23)cc1 | Huh-Luc-Neo |  | >100 µM
Cc1c[nH]c2ccc([N+](=O)[O-])cc12 | VERO | resazurin | 140 µM
[N-]=[N+]=NC1C[C@H](n2cnc3c(=O)n4cc(-c5ccccc5)[nH]c4nc32)O[C@@H]1CO | PBM |  | 69.6 µM
Cc1ccc(OC(=O)NCC2CCc3ccccc3N2)cc1 | PBMC |  | 50 µM
CCOC(=O)c1c(C)cc(=O)c(O)c(O)c1O | CEM-SS | absorbance | >50 µM
Cc1cc(C2CC2)n2nc(S(=O)(=O)Nc3c(C)ccc(Cl)c3C)nc2n1 | HEPG2 (HB-8065) | WST | >128 µg/mL
Cc1cccc(-c2nc(=S)[nH][nH]2)c1 | Panc-1 | MTT | >100 µg/mL
COc1ccc(C[C@H](N)C(=O)N[C@H]2[C@@H](O)[C@H](n3cnc4c(N(C)C)ncnc43)O[C@@H]2CO)cc1 | K562 (CRL-1573) | WST | 0.39 µg/mL
Cn1c(=O)cc(Sc2ccc(NC(=O)[C@H](Cc3ccc(F)cc3)NC(=O)OC(C)(C)C)cc2)c2ccccc21 | Huh-Luc-Neo |  | >100 µM
O=C(NCCc1ccc2c(n1)NCCC2)Nc1ccccc1Cl | PBMC |  | 50 µM
CCCCS(=O)(=O)Nc1ccc2[nH]c(C(=O)N(CC)CC)c(C)c2c1 | VERO | resazurin | >140 µM
COC(=O)c1cc(=O)c(O)c(OC)cc1C | CEM-SS | absorbance | >50 µM
CCN(CC)c1ccc(-c2cn3c(=O)c4ncn([C@H]5CC(N=[N+]=[N-])[C@@H](CO)O5)c4nc3[nH]2)cc1 | PBM |  | >100 µM
COC(=O)c1cc(O)c(O)c(=O)cc1C | CEM-SS | absorbance | 8.5 µM
Fc1cccc(Cn2c(-c3ccc(-n4cncn4)cc3)nc3c(F)cc(F)cc32)c1 | Vero-C-1008 | neutral red / absorbance | >50 µg/mL
O=C1C=CC(=C(c2ccc(O)cc2)c2ccc(O)cc2)C=C1 | HuT-78 |  | 2.3 µM
CC[C@@H](C)[C@@H]1NC(=O)[C@@H](CC(C)C)NC(=O)[C@H](CC(C)C)NC(=O)[C@H](Cc2c[nH]c3ccccc23)NC(=O)[C@@H](CCCN)NC(=O)[C@H](COC(C)(C)C)NC1=O | Hep2G | luminescence | >100 µM
Nc1nc2c(ncn2COCCO)c(=O)[nH]1 | COS 1 |  | 129 µg/mL
c1ccc(C2CC3(N4CCCCC4)CC(c4ccccc4)C2N(CCCN2CCCCC2)C3)cc1 | Rat skeletal myoblasts |  | 138.3 µM
CO[C@H]1O[C@H](Cn2c(C)c(C)c(=O)[nH]c2=O)[C@H](O)[C@H]1OCc1ccccc1F | MOLT 4/C8 |  | 30 µM
COc1ccc(-c2cc3c(-c4ccnc(NC5CCCC5)n4)ccc(NC4CCCC4)n3n2)cc1 | VERO 76 |  | >100 µM
N=c1nc(N)c2ncn([C@@H]3O[C@H](CO)[C@@H](O)[C@H]3O)c2c(N)n1 | 2.2.15 |  | 501 µM
Cn1c(-c2ccc(-n3cncn3)cc2)nc2c(F)cc(F)cc21 | Vero-C-1008 | neutral red / absorbance | >50 µg/mL
CO[C@H]1O[C@H](Cn2cc(I)c(=O)[nH]c2=O)[C@H](O)[C@H]1OCc1ccccc1F | MOLT 4/C8 |  | 126 µM
CC(C)C[C@@H]1NC(=O)[C@H](Cc2c[nH]c3ccccc23)NC(=O)[C@@H](CCCN)NC(=O)[C@H](CC(N)=O)NC(=O)[C@H](C)NC(=O)[C@@H](CC(C)C)NC1=O | Hep2G | luminescence | >100 µM
c1cc(-c2ccc(NC3CCCC3)n3nc(-c4ccc(OCC5CCC5)cc4)cc23)nc(NC2CCCC2)n1 | VERO 76 |  | >100 µM
COCCOCC(=O)Nc1ccc(Sc2cc(=O)n(C)c3ccccc23)cc1 | Huh-Luc-Neo |  | >100 µM
CO[C@@H]1[C@@H](OC(N)=O)[C@@H](O)[C@H](Oc2ccc3c(O)c(NC(=O)c4ccc(O)c(CC=C(C)C)c4)c(=O)oc3c2C)OC1(C)C | SK-K |  | 31 µg/mL
C#CCn1c(-c2ccc(-n3cncn3)cc2)nc2c(F)cc(F)cc21 | Vero-C-1008 | neutral red / absorbance | >50 µg/mL
O=c1[nH]c(=O)n([C@@H]2CO[C@H](CO)O2)cc1/C=C/Br | HEL 299 |  | >200 µM
Fc1cc(F)c2nc(-c3ccc(-n4cncn4)cc3)n(Cc3ccccc3)c2c1 | Vero-C-1008 | neutral red / absorbance | >50 µg/mL
Nc1nc2c(ncn2COC(CO)CO)c(=O)[nH]1 | CFU-GM |  | 15 µM
CN(Cc1ccc(Cl)c(Cl)c1)C(=O)CCc1ccc2c(n1)NCCC2 | PBMC |  | 16 µM
C/C(=N\NC(=O)c1ccncc1)c1ccc(Cl)cc1Cl | HEL cells | MTT | 11 µg/mL
Fc1cccc(-c2cc3c(-c4ccnc(NC5CCCC5)n4)ccc(NC4CCCC4)n3n2)c1 | VERO 76 |  | >40 µM